Compound potency records, mixed from different reports. Data source: NIAID ChemDB in PubChem.

Common to all: cytotoxicity tests; cell line: HEL; endpoint: CC50

Lines come from different laboratories, so protocols vary. CCn is the concentration with n% toxicity to the cells.

SMILES | result
Cc1ccc(OCCCc2cc3cn([C@H]4C[C@H](O)[C@@H](CO)O4)c(=O)nc3o2)cc1 | >200 µM
O=c1[nH]c(=O)n([C@H]2C[C@H](O)[C@@H](CO)S2)cc1C1CCCCC1 | >150 µM
Nc1ncnc2c1ncn2[C@@H]1CO[C@H](CO)[C@@H](O)C1 | >50 µg/mL
CCCCCc1cc2cn([C@H]3C[C@H](O)[C@@H](CO)O3)c(=O)nc2o1 | >50 µM
O=S(=O)(Cc1ccc(Cl)cc1)c1cccc[n+]1[O-] | 25 µg/mL
Nc1ccn(C[C@@H](CO)OCP(=O)(O)O)c(=O)n1 | 80 µg/mL
O=c1[nH]c(=O)n([C@H]2C[C@H](O)[C@@H](CO)O2)cc1/C=C/Br | >200 µM
Cc1cc(-c2ccccc2)c2ncc(CSCCc3ccccc3)n2c1 | 33 µg/mL
CO[C@H](CO)[C@@H](O)CCn1cc(C)c(=O)[nH]c1=O | >400 µg/mL
CCCCCCOc1ccc(-c2cc3cn([C@H]4C[C@H](O)[C@@H](CO)O4)c(=O)nc3o2)cc1 | >200 µM
CC(C)(C)c1cn([C@H]2C[C@H](O)[C@@H](CO)O2)c(=O)[nH]c1=O | >200 µM
Cc1ccc(C)c(C(C)S(=O)(=O)c2c(Cl)ccc[n+]2[O-])c1 | 1.7 µg/mL
COc1cc([C@@H]2c3cc4c(cc3[C@@H](Nc3ccc([N+](=O)[O-])cc3)[C@H]3COC(=O)[C@]23F)OCO4)cc(OC)c1O | 6.09 µM
O=c1[nH]c(=O)n([C@H]2C[C@H](O)[C@@H](CO)O2)cc1C#CCCCCCCCCCCl | 74 µM
Cc1cccn2c(C3OCCS3)cnc12 | >266 µM
COc1ccc(-c2cc3cn([C@H]4C[C@H](O)[C@@H](CO)O4)c(=O)nc3o2)cc1 | >200 µM
FC(F)(F)c1cc(Cl)c2ncc(CSCc3ccccc3)n2c1 | 40 µg/mL
CCCc1cn([C@H]2C[C@H](O)[C@@H](CO)O2)c(=O)[nH]c1=O | >200 µM
C#CCCCCc1cc2cn([C@H]3C[C@H](O)[C@@H](CO)O3)c(=O)nc2o1 | >200 µM
Cc1cc(Br)c2ncc(CSCc3ccccc3)n2c1 | >50 µg/mL
CCCCCCCc1cc2cn([C@H]3C[C@H](O)[C@@H](CO)O3)c(=O)nc2o1 | >50 µM
CCCCCCCCc1cc2cn([C@H]3C[C@H](O)[C@@H](CO)O3)c(=O)nc2o1 | >200 µM
Cc1ccc(C)c(C(c2ccccc2)S(=O)(=O)c2cccc[n+]2[O-])c1 | >20 µg/mL
O=c1nc2oc(CCCC3OCCO3)cc2cn1[C@H]1C[C@H](O)[C@@H](CO)O1 | >200 µM
CCCCCCCCCCCC(c1cc(C)ccc1C)S(=O)(=O)c1cccc[n+]1[O-] | >20 µg/mL
C[C@@H](NC(=O)N1C(=O)C[C@]1(Cc1ccccc1)C(=O)O)c1ccccc1 | >200 µM
C#CCCCc1cc2cn([C@H]3C[C@H](O)[C@@H](CO)O3)c(=O)nc2o1 | >200 µM
CC(C)C[C@H](NC(=O)n1nnc2ccccc21)C(=O)NC(c1ccccc1)c1ccccc1 | 40 µg/mL
O=c1[nH]c(=O)n([C@H]2C[C@H](O)[C@@H](CO)O2)cc1I | >50 µg/mL
Cc1c(O)c(=O)ccn1[C@@H]1CC[C@@H](CO)O1 | >900 µM
CCCCCCCCCCc1cc2cn([C@H]3C[C@H](O)[C@@H](CO)O3)c(=O)nc2o1 | >50 µM
CCCCCCCCCCCCc1cc2cn([C@H]3C[C@H](O)[C@@H](CO)O3)c(=O)nc2o1 | >200 µM
Nc1nc2c(ncn2[C@H]2CCC[C@H]2CO)c(=O)[nH]1 | >50 µg/mL
Nc1ccn([C@@H]2CO[C@H](CO)[C@@H](O)C2)c(=O)n1 | 2 µg/mL
Nc1nc2c(ncn2C[C@@H](CO)OCP(=O)(O)O)c(=O)[nH]1 | 14 µM
Cc1cc(-c2cccs2)c2ncc(CSCCc3ccccc3)n2c1 | >50 µg/mL
CC(C)CS[C@@H]1C=C[C@H](n2cnc3c(N)ncnc32)C1 | 50 µg/mL
Nc1nc(N)c2ncn(C[C@@H](CO)OCP(=O)(O)O)c2n1 | 82 µM
Cc1ccn2c(C3SCCS3)cnc2c1 | >245 µM
COc1cccc(-c2cc(C)c3ncc(CSCCc4ccccc4)n3c2)c1 | 36 µg/mL
Nc1ccn(CC[C@H](O)CCO)c(=O)n1 | >400 µg/mL
CCCCCCc1cc2cn([C@H]3C[C@H](O)[C@@H](CO)O3)c(=O)nc2o1 | >200 µM
Cc1ccn2c(C3OCCO3)cnc2c1 | >290 µM
Nc1ncc2ncn(C[C@H]3CCC[C@H]3CO)c2n1 | 20 µg/mL
CCCCCCCCc1cc2cn([C@H]3C[C@H](O)[C@@H](CO)O3)c(=O)nc2o1 | ≥50 µM
CC(C)C[C@H](NC(=O)n1nnc2ccccc21)C(=O)NCC1CCCCC1 | 156 µg/mL
COc1cc([C@@H]2c3cc4c(cc3[C@@H](Nc3ccc(C#N)cc3)[C@H]3COC(=O)[C@]23F)OCO4)cc(OC)c1O | 8.43 µM
O=c1nc2oc(CCCOc3ccccc3)cc2cn1[C@H]1C[C@H](O)[C@@H](CO)O1 | >200 µM
COc1ccc([N+](=O)[O-])cc1CS(=O)(=O)c1cccc[n+]1[O-] | 17 µg/mL
Nc1nc2c(ncn2COC(CO)CO)c(=O)[nH]1 | 100 µg/mL
Cc1ccn2c(CSCCc3ccccc3)cnc2c1 | >50 µg/mL
Cc1cccc(C(C#N)S(=O)c2cccc[n+]2[O-])c1 | <0.2 µg/mL
COc1cc([C@@H]2c3cc4c(cc3[C@@H](Nc3ccc(N)cc3)[C@H]3COC(=O)[C@]23F)OCO4)cc(OC)c1O | 7.5 µM
C[C@@H](NC(=O)N1C(=O)C[C@@]1(Cc1ccccc1)C(=O)O)c1ccccc1 | >200 µM
CC(C)[C@H](NC(=O)n1nnc2ccccc21)C(=O)NC1CCCCC1 | 90 µg/mL
CCCCCCCCCCc1cc2cn([C@H]3C[C@H](O)[C@@H](CO)O3)c(=O)nc2o1 | >50 µM
Cc1c(O)c(=O)ccn1[C@H]1CC[C@@H](CO)O1 | >900 µM
Cc1ccc(C)c(CS(=O)(=O)c2ncccc2O)c1 | >20 µg/mL
COC(=O)[C@]1(C)CCC[C@]2(C)c3cc(Br)c4[nH]ccc4c3CCC12 | 12.5 µg/mL
Nc1nc(=O)n([C@@H]2CC[C@H](CO)O2)cc1F | 15 µM
[O-][n+]1c(Cl)cccc1SCc1ccccc1 | 48 µg/mL
CCCCCCCCCCCc1cc2cn([C@H]3C[C@H](O)[C@@H](CO)O3)c(=O)nc2o1 | >200 µM
C#CCCCCCCc1cc2cn([C@H]3C[C@H](O)[C@@H](CO)O3)c(=O)nc2o1 | >200 µM
CCCCCCCCCCc1cc2cn([C@H]3C[C@H](O)[C@@H](CO)O3)c(=O)nc2o1 | >50 µM
COC(=O)[C@]1(C)CCC[C@]2(C)c3ccc4nc(-c5ccccc5)c(-c5ccccc5)nc4c3CCC12 | >50 µg/mL
Cc1ccc(C)c(CS(=O)c2cccc[n+]2[O-])c1 | >50 µg/mL
COC(=O)Nc1nc2c3c(ccc2[nH]1)[C@@]1(C)CCC[C@@](C)(C(=O)OC)C1CC3 | 4.5 µg/mL
CC1(C)[C@@H](CO)CC[C@@]1(C)Cn1nnc2c(=O)[nH]cnc21 | >50 µg/mL
Cc1ccc(-c2cc3cn([C@H]4C[C@H](O)[C@@H](CO)O4)c(=O)nc3o2)cc1 | >200 µM
Cc1ccn2c(CSCC(F)(F)F)cnc2c1 | >50 µg/mL
Cc1ccc(C)c(CS(=O)(=O)c2cccc[n+]2[O-])c1C | 11 µg/mL
CC1(C)[C@@H](CO)CC[C@@]1(C)Cn1cc(Br)c(=O)[nH]c1=O | >50 µg/mL
Cc1ccc(C)c(CSc2ccc(Cl)c[n+]2[O-])c1 | >100 µg/mL
CCCc1ccc(OCCCc2cc3cn([C@H]4C[C@H](O)[C@@H](CO)O4)c(=O)nc3o2)cc1 | 165 µM
O=C(O)P(=O)(O)O | 504 µM
CO[C@H](CO)[C@@H](O)CCn1ccc(N)nc1=O | >400 µg/mL
Nc1nccc2c1ncn2[C@@H]1C[C@H](CO)[C@@H](O)[C@H]1O | >50 µg/mL
c1ccc(CCSCc2cnc3ccc(-c4ccccc4)cn23)cc1 | 9.9 µg/mL
Nc1ncnc2c1ncn2[C@@H]1C=C(CO)[C@@H](O)[C@H]1O | 20 µg/mL
Cc1ccc(N)cc1C(C)S(=O)(=O)c1cccc[n+]1[O-] | >50 µg/mL
O=c1nc2oc(CCCCCCCCCBr)cc2cn1[C@H]1C[C@H](O)[C@@H](CO)O1 | >50 µM
O=C1O/C(=C\Cn2ccc(=O)[nH]c2=O)C(O)=C1O | >50 µg/mL
Nc1ncnc2c1ncn2C[C@@H](CF)OCP(=O)(O)O | >150 µM
O=c1[nH]c(=O)n([C@H]2C[C@H](O)[C@@H](CO)O2)cc1C1CC1 | >200 µM
CCCCCCc1cc2cn([C@H]3C[C@H](O)[C@@H](CO)O3)c(=O)nc2o1 | >200 µM
O=[N+]([O-])c1ccc(CS(=O)(=O)c2cccc[n+]2[O-])cc1 | 7.6 µg/mL
Nc1ncnc2c1ncn2C[C@@H](CO)OCP(=O)(O)O | 75 µM
CCCCCCCCc1ccc(-c2cc3cn([C@H]4C[C@H](O)[C@@H](CO)O4)c(=O)nc3o2)cc1 | >200 µM
C[C@H](NC(=O)N1C(=O)C[C@@]1(Cc1ccccc1)C(=O)O)c1ccccc1 | 187 µM
Nc1nc2c(ncn2[C@@H]2CO[C@H](CO)[C@@H](O)C2)c(=O)[nH]1 | 20 µg/mL
Nc1nc(N)c2ncn(C[C@H]3CCC[C@H]3CO)c2n1 | >50 µg/mL
COc1cccnc1SCc1ccccc1 | >20 µg/mL
CC(C)(C)c1cn([C@H]2C[C@H](O)[C@@H](CO)S2)c(=O)[nH]c1=O | >150 µM
Nc1ccn(C[C@@H](CO)OCP(=O)(O)O)c(=O)n1 | 351 µM
Nc1ncc2ncn(C[C@@H](CO)OCP(=O)(O)O)c2n1 | >600 µM
CCOc1ccc(-c2cc3cn([C@H]4C[C@H](O)[C@@H](CO)O4)c(=O)nc3o2)cc1 | >200 µM
Cc1ccn2c(C(SCCc3ccccc3)SCCc3ccccc3)cnc2c1 | 36 µM
CC1(C)[C@@H](CO)CC[C@@]1(C)Cn1ccc(=O)[nH]c1=O | >50 µg/mL
N#Cc1ccc(CS(=O)(=O)c2cccc[n+]2[O-])cc1 | 12 µg/mL
CCCCCCCCc1cc2cn([C@H]3C[C@H](O)[C@@H](CO)O3)c(=O)nc2o1 | >50 µM
Cc1ccc([N+](=O)[O-])cc1CS(=O)(=O)c1cccc[n+]1[O-] | 57 µg/mL
Nc1nc2c(ncn2CCC(CO)CO)c(=O)[nH]1 | 290 µg/mL
CO[C@H](CO)[C@@H](O)CCn1cnc2c(N)ncnc21 | >400 µg/mL
Cc1ccc(C)c(CS(=O)c2c(C)ccc[n+]2[O-])c1 | 42 µg/mL
O=C(NC(c1ccccc1)c1ccccc1)[C@H](Cc1ccccc1)NC(=O)n1nnc2ccccc21 | 17.3 µg/mL
CCCCCCCCCCc1cc2cn([C@H]3C[C@H](O)[C@@H](CO)O3)c(=O)nc2o1 | >200 µM
O=C1c2ccccc2C(=O)N1CCCC1C2CC3CC(C2)CC1C3 | 34 µM
O=C1OC(C(O)Cn2cc(F)c(=O)[nH]c2=O)C(OCc2ccccc2)=C1OCc1ccccc1 | 33.4 µg/mL
Nc1nc2c(ncn2C[C@@H](CF)OCP(=O)(O)O)c(=O)[nH]1 | >150 µM
c1ccc(COc2cccnc2SCc2ccccc2)cc1 | 5.9 µg/mL
CCCCCCCCc1ccc(-c2cc3cn([C@H]4C[C@H](O)[C@@H](CO)O4)c(=O)nc3o2)cc1 | 200 µM

Repeating the first 6 entries:

SMILES | result
Cc1ccc(OCCCc2cc3cn([C@H]4C[C@H](O)[C@@H](CO)O4)c(=O)nc3o2)cc1 | >200 µM
O=c1[nH]c(=O)n([C@H]2C[C@H](O)[C@@H](CO)S2)cc1C1CCCCC1 | >150 µM
Nc1ncnc2c1ncn2[C@@H]1CO[C@H](CO)[C@@H](O)C1 | >50 µg/mL
CCCCCc1cc2cn([C@H]3C[C@H](O)[C@@H](CO)O3)c(=O)nc2o1 | >50 µM
O=S(=O)(Cc1ccc(Cl)cc1)c1cccc[n+]1[O-] | 25 µg/mL
Nc1ccn(C[C@@H](CO)OCP(=O)(O)O)c(=O)n1 | 80 µg/mL